Measurements as given in patent publication US20090281028A1.

Tests used:
[1] = biological target: human Kv1.3 channel (human) (UniProt P22001); assay: cell-based or functional assay
[2] = biological target: human Kv1.1 channel (human) (UniProt Q09470); assay: cell-based or functional assay

Substance	Kv1.3 IC50 by IWQ (nM), IonWorks planar patch clamp, CHO/Kv1.3 cells [1] [nM]	hKv1.1: IC50 [pM], block of current, whole cell patch clamp [2] [pM]	fold change in Kv1.1/Kv1.3 selectivity against Fc-L10-OSK1 [2] [fold]	fold change in potency against Fc-L10-OSK1 [1] [fold]	fold loss of potency (IC50 of Kv1.3 current block) against synthetic OSK1 [1] [fold]	hKv1.3: IC50 [pM], block of current, whole cell patch clamp [1] [pM]	selectivity ratio hKv1.1/hKv1.3 (IC50) [1] [fold]
CHO-derived Fc-L10-ShK[1-35] R1Q (Fc fusion)	2.2	–	–	–	–	–	–
Fc-L10-OSK1[K7S, E16K, K20D] (Fc fusion)	–	10000	–	–	–	–	–
Fc-L10-OSK1[K7S] (Fc fusion)	–	100000	1.3	2	10	372	269
